# Source: PubChem BioAssay AID720584 (National Center for Advancing Translational Sciences (NCATS), 2013)
# Only a part is listed here, and it is no random draw. Records with an inconclusive call do not appear. The source made the active and inactive calls. Calls come from the whole dose curve; as a rule, active = well fitted inhibition curve with a large enough effect; inconclusive = small, poorly fitted or top-dose-only effect; inactive = flat fitted curve, though single readings scatter.
# System: Trypanosoma brucei pyruvate kinase (TbPYK)
# Assay: qHTS of Trypanosoma Brucei Inhibitors: Orthogonal Assay for Cherry-picked Compounds; note: nearly all actives have a fitted effect of over 75% in size
# Settings: recombinant TbPYK, ADP-Glo luminescence, 60 min
# From the text: Members of the Trypanosomatidae family of parasitic protozoans cause a spectrum of diseases throughout the tropical and subtropical world. Sleeping sickness, caused by two subspecies of Trypanosoma brucei, is endemic to areas of sub-Saharan Africa, while Chagas' disease, a manifestation of Trypanosoma cruzi infection, is prevalent throughout Central and South America. In addition, many species of Leishmania are responsible for a range of cutaneous and visceral diseases, causing ulcers, destructive lesions and kalaazar, a lethal infection of the viscera. These diseases cause severe public health and economic burdens on populations that are often already caught in a tragic cycle of poverty, poor nutrition and disease. […] While the primary qHTS provides a luminescence-based detection of TbPyK by measuring ATP production, the orthogonal assay will measure the amount of ADP substrate remaining. […]
# Briefly, 2 uL of substrate/TbPYK buffer (all columns but column 4) are dispensed into Greiner white solid-bottom 1536-well assay plates. […] ADP-Glo reagent II is then added (5 uL), followed by a 10 minute room temperature incubation, before being transferred to a ViewLux high-throughput CCD imager (PerkinElmer), wherein single end-point measurements of luminescence are acquired using a clear filter. […]
# Potency is the fitted concentration of half-maximal effect.
compound,measurement,value
Cc1cc(SC(NC(=O)c2ccccc2)C(Cl)(Cl)Cl)nc(C(C)C)n1 (stereo unspecified),Potency,active: 15.8 µM
